Data published in article PMC9098913, “In vitro reconstitution of Escherichia coli divisome activation” (Nature Communications, 2022).

Assay: Diffusion coefficient of His-tagged FtsAs and His-SUMO on Tris-NTA membranes (FRAP)
Method: To study colocalization of His-tagged variants of FtsA, 0.5–1 µM of Cy5 labelled His-tagged FtsAs were added to the chamber, incubated for 20 min and washed 6x with reaction buffer. […] To control the density of membrane-bound FtsA, SUVs without and with Tris-NTA lipids were mixed to obtain the respective Tris-NTA concentrations. To perform FRET/FRAP experiments, equimolar concentrations of Cy3 and Cy5 labelled His-tagged FtsAs (total 0.5–1 µM) or His-SUMO-Cys were added to a chamber and treated as above. […] FRAP experiments were performed as described before.
Bleaching the acceptor dye leads to an increase in the donor intensity, which can be used to quantify the Foerster Resonance energy transfer (FRET)[48]. FRET efficiency was quantified with E%=Ipost/Ipost+Ipre⋅100 , where Ipost is the intensity of the […] and Ipre is the […]. […] To extract the contribution of both processes, we adjusted a routine recently published by Gerganova et al.[33]. In short, the code provides the contribution of both modes of recovery by analysing the shape of the fluorescence recovery profile. […] Contribution of diffusion leads to a change of the slope of the outer borders of the bleached region (S4h right). Thus, by measuring the change of the slope of the border recovery, diffusion and simple on/off binding can be distinguished. We developed “FRAPdiff”, a graphical user interface, which uses the original fit routine by David Rutkowski. It can be used directly on.tiff movies with annotated bleach regions as ImageJ ROIs. In addition, we added optional bleach correction, user selectable projection axis (x or y), and optional mirroring of the recovery profiles, if bleaching was not symmetric. The original fit routine for estimating the recovery and diffusion dynamics can be found at https://github.com/davidmrutkowski/1DReflectingDiffusion. FRAPdiff is available at 10.5281/zenodo.6400639[49] under the GPLv3 open-source license.

[1] = 2% Tris NTA, without FtsZ, replicate Exp1
[2] = 2% Tris NTA, without FtsZ, replicate Exp2
[3] = 2% Tris NTA, without FtsZ, replicate Exp4

| Molecule | Diffusion Coefficient (2% Tris NTA, + FtsZ, replicate Exp1) [µm2/s] | Diffusion Coefficient (2% Tris NTA, + FtsZ, replicate Exp2) [µm2/s] | Diffusion Coefficient (2% Tris NTA, + FtsZ, replicate Exp3) [µm2/s] | Diffusion Coefficient [1] [µm2/s] | Diffusion Coefficient [2] [µm2/s] | Diffusion Coefficient [3] [µm2/s] | Diffusion Coefficient ([…] Tris NTA, + FtsZ, replicate Exp1) [µm2/s] | Diffusion Coefficient ([…] Tris NTA, + FtsZ, replicate Exp2) [µm2/s] | Diffusion Coefficient ([…] Tris NTA, + FtsZ, replicate Exp3) [µm2/s] | Diffusion Coefficient ([…] Tris NTA, + FtsZ, replicate Exp4) [µm2/s] | Diffusion Coefficient ([…] Tris NTA, + FtsZ, replicate Exp5) [µm2/s] | Diffusion Coefficient ([…] Tris NTA, without FtsZ, replicate Exp1) [µm2/s] | Diffusion Coefficient ([…] Tris NTA, without FtsZ, replicate Exp2) [µm2/s] | Diffusion Coefficient ([…] Tris NTA, without FtsZ, replicate Exp3) [µm2/s] | Diffusion Coefficient ([…] Tris NTA, without FtsZ, replicate Exp4) [µm2/s] | Diffusion Coefficient ([…] Tris NTA, without FtsZ, replicate Exp5) [µm2/s] | Diffusion Coefficient (2% Tris NTA, without FtsZ, replicate Exp3) [µm2/s] |
| --- | --- | --- | --- | --- | --- | --- | --- | --- | --- | --- | --- | --- | --- | --- | --- | --- | --- |
| FtsA-His6: FtsA WT (1-405) with amphipathic helix replaced by C-terminal His-tag | 1.64e-5 | 0.00011 | 0.000662 | 6.55e-5 | 0.0237 | 0.000354 | 7.28e-5 | 1.56e-15 | 0.0017 | 0.00179 | 0.00872 | 0.00204 | 1.2e-5 | 0.000962 | 0.00534 | 0.0214 | – |
| His6-SUMO (protein, UniProt Q12306 2-98, looked up, His6 tag) Ubiquitin-like protein SMT3: SDSEVNQEAKPEVKPEVKPETHINLKVSDGSSEIFFKIKKTTPLRRLMEAFAKRQGKEMDSLRFLYDGIRIQADQTPEDLDMEDNDIIEAHREQIGG | – | – | – | 0.56 | 0.54 | 0.60 | – | – | – | – | – | – | – | – | – | – | 0.60 |
